Patent US20030055007A1, “Antimicrobial agents” (priority 2001, published 2003)

Test system: influenza virus
Settings: in vivo, po

In the case of “Lignosulfonic acid sodium salt [sample 5]”, the side effects is reported as “not seen”.
